{"source": "PubChem BioAssay AID504761 (Drosophila RNAi Screening Center, 2011)", "purpose": "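Genome-wide fly cell screen for genes dengue virus requires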 (primary screen)", "cells": "D.Mel-2 cells from Drosophila", "reagents": "long dsRNA against Drosophila genes", "challenge": "infection with dengue virus type 2; dose and infection time not stated", "read-out": "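Per well on two replicate plates, imaging gave the percent of cells positive for viral envelope protein, ranked by infection, and a nuclear count of cells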", "scale": "infection score: higher = more virus-infected cells; cell count: higher = more cells in the well", "active means": "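Low infection ranks in the two replicates (chance level up to 0.065) followed by a retest with a 1.5-fold or larger significant decrease, p below 0.05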", "meaning of the calls": "active = confirmed: knock-down lowers infection; inactive = not picked or not confirmed", "note": "In all, the deposit lists about 22,000 reagents; this is an unselected part of those that have a named target and a result. In the full data, 116 (0.52%) are marked active. 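Calls depend on retest data that are not deposited; infection was ranked per plate without normalising between plates; the unit of the infection score is not given.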 Raw values vary from plate to plate and are shown uncorrected. The numbers tell different reagents against one gene apart. Names joined by + are all predicted targets of the reagent. The record does not give: the amount of reagent, the time to read-out."}
{"Gene": "Gdap1", "reagent": 1, "infection score, replicate 1": 2.11, "infection score, replicate 2": 1.03, "cell count, replicate 1": 6869, "cell count, replicate 2": 6108, "outcome": "inactive"}
{"Gene": "Gdap1", "reagent": 2, "infection score, replicate 2": 8.64, "cell count, replicate 1": 373, "cell count, replicate 2": 6363, "outcome": "inactive"}
{"Gene": "CG42324", "reagent": 1, "infection score, replicate 1": 3.77, "infection score, replicate 2": 6.16, "cell count, replicate 1": 6334, "cell count, replicate 2": 6295, "outcome": "inactive"}
{"Gene": "CG42324", "reagent": 2, "infection score, replicate 1": 4.04, "infection score, replicate 2": 3.31, "cell count, replicate 1": 5688, "cell count, replicate 2": 6079, "outcome": "inactive"}
{"Gene": "CG42324", "reagent": 3, "infection score, replicate 1": 4.8, "infection score, replicate 2": 1.82, "cell count, replicate 1": 5105, "cell count, replicate 2": 6044, "outcome": "inactive"}
{"Gene": "Cisd2 (CDGSH iron sulfur domain 2)", "reagent": 1, "infection score, replicate 1": 8.74, "infection score, replicate 2": 2.82, "cell count, replicate 1": 6636, "cell count, replicate 2": 7065, "outcome": "inactive"}
{"Gene": "Toll-6", "reagent": 1, "infection score, replicate 1": 0.81, "infection score, replicate 2": 2.27, "cell count, replicate 1": 6185, "cell count, replicate 2": 6478, "outcome": "inactive"}
{"Gene": "klar (klarsicht)", "reagent": 1, "infection score, replicate 1": 9.57, "infection score, replicate 2": 8.99, "cell count, replicate 1": 6538, "cell count, replicate 2": 6827, "outcome": "inactive"}
{"Gene": "klar (klarsicht)", "reagent": 2, "infection score, replicate 1": 1.13, "infection score, replicate 2": 0.98, "cell count, replicate 1": 6015, "cell count, replicate 2": 6707, "outcome": "inactive"}
{"Gene": "CG4928", "reagent": 1, "infection score, replicate 1": 6.17, "infection score, replicate 2": 1.93, "cell count, replicate 1": 6673, "cell count, replicate 2": 6216, "outcome": "inactive"}
{"Gene": "CG4928", "reagent": 2, "infection score, replicate 2": 25.6, "cell count, replicate 1": 368, "cell count, replicate 2": 5268, "outcome": "inactive"}
{"Gene": "twi (twist)", "reagent": 1, "infection score, replicate 1": 0.99, "infection score, replicate 2": 9.18, "cell count, replicate 1": 5659, "cell count, replicate 2": 6599, "outcome": "inactive"}
{"Gene": "twi (twist)", "reagent": 2, "infection score, replicate 1": 5.34, "infection score, replicate 2": 1.67, "cell count, replicate 1": 6984, "cell count, replicate 2": 6629, "outcome": "inactive"}
{"Gene": "Fbl6 (F-box and leucine-rich repeat protein 6)", "reagent": 1, "infection score, replicate 1": 8.79, "infection score, replicate 2": 14.3, "cell count, replicate 1": 2457, "cell count, replicate 2": 6333, "outcome": "inactive"}
{"Gene": "Fbl6 (F-box and leucine-rich repeat protein 6)", "reagent": 2, "infection score, replicate 1": 5.06, "infection score, replicate 2": 4.69, "cell count, replicate 1": 6543, "cell count, replicate 2": 6480, "outcome": "inactive"}
{"Gene": "GstO3 (Glutathione S transferase O3)", "reagent": 1, "infection score, replicate 1": 2.7, "infection score, replicate 2": 1.89, "cell count, replicate 1": 6215, "cell count, replicate 2": 6365, "outcome": "inactive"}
{"Gene": "Nurf-38 (Nucleosome remodeling factor - 38kD)", "reagent": 1, "infection score, replicate 1": 2.57, "infection score, replicate 2": 5.79, "cell count, replicate 1": 5988, "cell count, replicate 2": 6802, "outcome": "inactive"}
{"Gene": "Nurf-38 (Nucleosome remodeling factor - 38kD)", "reagent": 2, "infection score, replicate 1": 10.9, "infection score, replicate 2": 2.1, "cell count, replicate 1": 6101, "cell count, replicate 2": 6372, "outcome": "inactive"}
{"Gene": "obst-E (obstructor-E)", "reagent": 1, "infection score, replicate 1": 1.6, "infection score, replicate 2": 3, "cell count, replicate 1": 6258, "cell count, replicate 2": 6868, "outcome": "inactive"}
{"Gene": "obst-E (obstructor-E)", "reagent": 2, "infection score, replicate 1": 13, "infection score, replicate 2": 13.3, "cell count, replicate 1": 5535, "cell count, replicate 2": 5906, "outcome": "inactive"}
{"Gene": "IFT52 (Intraflagellar transport 52)", "reagent": 1, "infection score, replicate 1": 4.26, "infection score, replicate 2": 4.8, "cell count, replicate 1": 6218, "cell count, replicate 2": 6502, "outcome": "inactive"}
{"Gene": "IFT52 (Intraflagellar transport 52)", "reagent": 2, "infection score, replicate 1": 12.6, "infection score, replicate 2": 2.37, "cell count, replicate 1": 3098, "cell count, replicate 2": 1267, "outcome": "inactive"}
{"Gene": "CG17777", "reagent": 1, "infection score, replicate 1": 1.14, "infection score, replicate 2": 0.66, "cell count, replicate 1": 6250, "cell count, replicate 2": 6350, "outcome": "inactive"}
{"Gene": "LysD + LysB + LysC (retired record)", "reagent": 1, "infection score, replicate 2": 0.06, "cell count, replicate 2": 6262, "outcome": "active"}
{"Gene": "CG8157", "reagent": 1, "infection score, replicate 1": 4.37, "infection score, replicate 2": 6.87, "cell count, replicate 1": 6595, "cell count, replicate 2": 5775, "outcome": "inactive"}
{"Gene": "CG8157", "reagent": 2, "infection score, replicate 1": 32.9, "infection score, replicate 2": 17.6, "cell count, replicate 1": 6072, "cell count, replicate 2": 6805, "outcome": "inactive"}
{"Gene": "CG8157", "reagent": 3, "infection score, replicate 1": 3.32, "infection score, replicate 2": 1.38, "cell count, replicate 1": 6786, "cell count, replicate 2": 6378, "outcome": "inactive"}

A run of entries of the results above, as a working copy:
{"Gene": "GstO3 (Glutathione S transferase O3)", "reagent": 1, "infection score, replicate 1": 2.7, "infection score, replicate 2": 1.89, "cell count, replicate 1": 6215, "cell count, replicate 2": 6365, "outcome": "inactive"}
{"Gene": "Nurf-38 (Nucleosome remodeling factor - 38kD)", "reagent": 1, "infection score, replicate 1": 2.57, "infection score, replicate 2": 5.79, "cell count, replicate 1": 5988, "cell count, replicate 2": 6802, "outcome": "inactive"}
{"Gene": "Nurf-38 (Nucleosome remodeling factor - 38kD)", "reagent": 2, "infection score, replicate 1": 10.9, "infection score, replicate 2": 2.1, "cell count, replicate 1": 6101, "cell count, replicate 2": 6372, "outcome": "inactive"}
{"Gene": "obst-E (obstructor-E)", "reagent": 1, "infection score, replicate 1": 1.6, "infection score, replicate 2": 3, "cell count, replicate 1": 6258, "cell count, replicate 2": 6868, "outcome": "inactive"}
